PubChem BioAssay AID1259414 – Drosophila RNAi Screening Center | 2018
Test: 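Genome-wide screen for host control of endosymbiont load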 (primary screen). Cell system: Drosophila JW18 cells infected with Wolbachia. Reagent: long dsRNA against Drosophila genes, 0.25 µg dsRNA per well of a 384-well plate. Duration: 5 days. Conditions: cells persistently infected with Wolbachia before knock-down; no added drug. Detection: 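Automated imaging of bacterial rRNA staining divided by host cell count, reported as plate-normalised robust z-score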. Scale: Wolbachia per cell robust z: higher = more Wolbachia per host cell than the plate typical. Call rule: 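Hit when robust z is 1.5 or more, or -1.5 or less, in at least two of three replicates; excludes dsRNAs with several or no targets, genes not expressed in JW18 and well A1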.
The deposit covers about 24,000 reagents; below is an unselected part of those with a known target gene and a result. Over the whole deposit, about 1,210 (5%) are marked active. 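Inactive calls also include excluded dsRNAs with several or no targets, genes unexpressed in JW18, and well A1, regardless of score.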 Reagents against one gene are numbered here. Names joined by + are all predicted targets of the reagent.

{"predicted target":"RhoGAP68F","reagent":1,"Wolbachia per cell robust z, rep 1":0.43,"Wolbachia per cell robust z, rep 2":-0.139,"Wolbachia per cell robust z, rep 3":-4.49,"activity call":"inactive"}
{"predicted target":"Mob4","reagent":1,"Wolbachia per cell robust z, rep 1":2.21,"Wolbachia per cell robust z, rep 2":1.39,"Wolbachia per cell robust z, rep 3":1.97,"activity call":"active"}
{"predicted target":"Mob4","reagent":2,"Wolbachia per cell robust z, rep 1":0.967,"Wolbachia per cell robust z, rep 2":1.22,"Wolbachia per cell robust z, rep 3":1.54,"activity call":"inactive"}
{"predicted target":"CG6602","reagent":1,"Wolbachia per cell robust z, rep 1":-0.624,"Wolbachia per cell robust z, rep 2":0.0481,"Wolbachia per cell robust z, rep 3":-0.432,"activity call":"inactive"}
{"predicted target":"insc","reagent":1,"Wolbachia per cell robust z, rep 1":0.579,"Wolbachia per cell robust z, rep 2":-0.165,"Wolbachia per cell robust z, rep 3":1.32,"activity call":"inactive"}
{"predicted target":"CG31787","reagent":1,"Wolbachia per cell robust z, rep 1":1.52,"Wolbachia per cell robust z, rep 2":1.14,"Wolbachia per cell robust z, rep 3":-1.28,"activity call":"inactive"}
{"predicted target":"ck","reagent":1,"Wolbachia per cell robust z, rep 1":0.126,"Wolbachia per cell robust z, rep 2":-0.655,"Wolbachia per cell robust z, rep 3":-0.544,"activity call":"inactive"}
{"predicted target":"ck","reagent":2,"Wolbachia per cell robust z, rep 1":-0.768,"Wolbachia per cell robust z, rep 2":-0.466,"Wolbachia per cell robust z, rep 3":-0.151,"activity call":"inactive"}
{"predicted target":"Drsl1","reagent":1,"Wolbachia per cell robust z, rep 1":0.897,"Wolbachia per cell robust z, rep 2":-0.0862,"Wolbachia per cell robust z, rep 3":0.697,"activity call":"inactive"}
{"predicted target":"CG10353","reagent":1,"Wolbachia per cell robust z, rep 1":-0.885,"Wolbachia per cell robust z, rep 2":-0.414,"Wolbachia per cell robust z, rep 3":0.213,"activity call":"inactive"}
{"predicted target":"CG10353","reagent":2,"Wolbachia per cell robust z, rep 1":0.243,"Wolbachia per cell robust z, rep 2":0.678,"Wolbachia per cell robust z, rep 3":-0.0772,"activity call":"inactive"}
{"predicted target":"CG11634","reagent":1,"Wolbachia per cell robust z, rep 1":-0.498,"Wolbachia per cell robust z, rep 2":-4.69,"Wolbachia per cell robust z, rep 3":0.411,"activity call":"inactive"}
{"predicted target":"CG31693","reagent":1,"Wolbachia per cell robust z, rep 1":-0.372,"Wolbachia per cell robust z, rep 2":-8.81,"Wolbachia per cell robust z, rep 3":0.00361,"activity call":"inactive"}
{"predicted target":"CG43996 + CG43997","reagent":1,"Wolbachia per cell robust z, rep 1":0.622,"Wolbachia per cell robust z, rep 2":-1.94,"Wolbachia per cell robust z, rep 3":0.115,"activity call":"inactive"}
{"predicted target":"CG43996 + CG43997","reagent":2,"Wolbachia per cell robust z, rep 1":-2.83,"Wolbachia per cell robust z, rep 2":0.18,"Wolbachia per cell robust z, rep 3":-2.07,"activity call":"inactive"}
{"predicted target":"Rsf1","reagent":1,"Wolbachia per cell robust z, rep 1":-0.308,"Wolbachia per cell robust z, rep 2":0.195,"Wolbachia per cell robust z, rep 3":0.13,"activity call":"inactive"}
{"predicted target":"Rsf1","reagent":2,"Wolbachia per cell robust z, rep 1":0.125,"Wolbachia per cell robust z, rep 2":0.424,"Wolbachia per cell robust z, rep 3":0.575,"activity call":"inactive"}
{"predicted target":"Rsf1","reagent":3,"Wolbachia per cell robust z, rep 1":1.08,"Wolbachia per cell robust z, rep 2":1.31,"Wolbachia per cell robust z, rep 3":1.39,"activity call":"inactive"}
